Anti-infective test results gathered from many reports (values: NIAID ChemDB through PubChem).

All rows: cytotoxicity tests; cell line: PBMC; method: MTT; measure: CC50

Neighbouring rows are from separate reports. CCn: concentration that lowers growth or viability of the cells by n%.

smiles,value
COc1ccc(/C=C/c2cc(Cl)c3ccccc3n2)c(OC)c1,10.46 µM
CC(=O)Oc1ccccc1C(=O)O,8977 µM
COC(=O)[C@H](C)NP(=O)(OC[C@@H]1OC[C@H](n2cc(C)c(=O)[nH]c2=O)O1)Oc1ccc(C)cc1,74.3 µM
Cc1cn([C@H]2C=C[C@@H](CO)O2)c(=O)[nH]c1=O,42 µM
Cc1cc(/C=C/c2cc3ccc(Cl)c(C)c3nc2Cl)c(C)s1,87 µM
COC(=O)[C@@H](NP(=O)(OC[C@@H]1OC[C@H](n2cc(C)c(=O)[nH]c2=O)O1)Oc1ccccc1)C(C)C,>100 µM
Cc1cn([C@H]2C=C[C@@H](CO)O2)c(=O)n(CCCCCCN2CCN(CCNC(=S)Nc3ccc(Br)cn3)CC2)c1=O,>100 µM
Cc1cn([C@H]2CO[C@@H](CO[P@]3(=O)OCC[C@H](c4ccccc4)O3)O2)c(=O)[nH]c1=O,>100 µM
CCCCC#CCSc1ccccc1O,3 µM
COc1nc(N)nc2c1ncn2[C@H]1CO[C@@H](CO)O1,>100 µM
C/C(=N\NC(=O)c1ccc([N+](=O)[O-])cc1)c1cccc(/C(C)=N/NC(=O)c2ccc([N+](=O)[O-])cc2)n1,>100 µM
NCC(NC(=O)c1ccc(-c2ccc(C(F)(F)F)c(F)c2)[nH]1)c1nc(CO)cs1,15 µM
CCCCCCCCCCOC(=O)c1cc(O)c(O)c(O)c1,2335 µM
Nc1nc(NC2CC2)c2ncn([C@H]3CO[C@@H](CO)O3)c2n1,>100 µM
Cc1cn([C@H]2C[C@@H](CO)C=C2F)c(=O)[nH]c1=O,>100 µM
CSc1ccccc1OC(C)=O,340 µM
CCCOC(=O)c1cc(O)c(O)c(O)c1,1800 µM
COC(=O)[C@H](C)NP(=O)(OC[C@@H]1OC[C@H](n2cc(C)c(=O)[nH]c2=O)O1)Oc1ccccc1Cl,>100 µM
CCCCCOC(=O)c1cc(O)c(O)c(O)c1,1525 µM
CCN(CC)C(=O)OC[C@@H]1CN(C(=O)c2ccccc2)CCN1C(=O)C(=O)c1c[nH]c2nccc(OC)c12,>125 µM
Cn1cc(C(=O)O)c(=O)c2cc(F)c(N3CC=C(c4ccccc4)CC3)c(C(F)(F)F)c21,3.2 µM
COC(=O)[C@H](C)NP(=O)(OC[C@@H]1OC[C@H](n2cc(C)c(=O)[nH]c2=O)O1)Oc1ccc(Cl)cc1Cl,>100 µM
C[C@H]1[C@H](O)[C@@H](C)/C=C/C=C/C=C/C=C/C=C/C=C/C=C/[C@H](O[C@@H]2O[C@H](C)[C@@H](O)[C@H](N)[C@@H]2O)C[C@@H]2O[C@](O)(C[C@@H](O)C[C@@H](O)CC[C@H](O)[C@@H](O)C[C@@H](O)CC(=O)O[C@H]1C)C[C@H](O)[C@H]2C(=O)O,>50 µM
O=C(O)CN(CCN(CC(=O)O)Cc1cnc2c(O)cccc2c1)CC(=O)O,>50 µM
Cc1cn([C@H]2CO[C@@H](COP(=O)(N[C@@H](C)C(=O)OCc3ccccc3)Oc3cccc4ccccc34)O2)c(=O)[nH]c1=O,>100 µM
C[C@H](Cn1cnc2c(N)ncnc21)OCP(=O)(O)O,≥10 µM
CC(=O)O[C@@H]1[C@@H](OC(C)=O)[C@H](C)O[C@@H]2Oc3[nH]c(=O)[nH]c(=O)c3S[C@@H]21,70 µM
CCOC(=O)[C@H](C)NP(=O)(OC[C@@H]1OC[C@H](n2cnc3c(OC)nc(N)nc32)O1)Oc1ccccc1,>100 µM
CCN(CC)C(=O)OC[C@H]1CN(C(=O)c2ccccc2)CCN1C(=O)C(=O)c1c[nH]c2nccc(OC)c12,>125 µM
CCCCCCCCCCCOC(=O)c1cc(O)c(O)c(O)c1,2048 µM
CC(=O)OC[C@H]1O[C@@H]2Oc3c(c(=O)n(C)c(=O)n3C)S[C@@H]2[C@@H](OC(C)=O)[C@H]1OC(C)=O,39 µM
Cc1cn([C@@H]2C[C@H](CO)C=C2F)c(=O)[nH]c1=O,>100 µM
C=C[C@]1(OCP(=O)(O)O)C[C@@H](n2cnc3c(N)ncnc32)C=C1F,≥10 µM
COC(=O)[C@H](C)NP(=O)(OC[C@@H]1OC[C@H](n2cc(C)c(=O)[nH]c2=O)O1)Oc1ccc(Br)cc1,32 µM
Cc1c(Cl)ccc2cc(/C=C/c3cccc4c3OCCO4)c(Cl)nc12,87.09 µM
O=c1[nH]cnc2c1ncn2[C@H]1C[C@@H](CO)C=C1F,>100 µM
Cc1cc(C)c(Nc2nc(N)nc(Nc3ccc(C#N)nc3)n2)c(C)c1,48.7 µg/mL
CC(=O)OC[C@H]1O[C@@H]2Oc3[nH]c(=O)[nH]c(=O)c3S[C@@H]2[C@@H](OC(C)=O)[C@H]1OC(C)=O,>100 µM
O=C(O)[C@H]1O[C@@H](Oc2cc(O)cc(/C=C/c3ccc(O)cc3)c2)[C@H](O)[C@@H](O)[C@@H]1O,>300 µM
Cc1c(Cl)ccc2cc(/C=C/c3csc(Cl)c3)c(Cl)nc12,24.8 µM
CCOC(=O)c1cc(O)c(O)c(O)c1,2100 µM
CCN1C(=O)NC(=O)C(C(C)C)C1CC1CC(C)CC(C#N)C1=O,>1000 µM
Cn1c2c(c(=O)n(C)c1=O)S[C@H]1[C@@H](O2)O[C@H](COc2ccccc2)[C@@H](OCc2ccccc2)[C@@H]1OCc1ccccc1,>100 µM
O=c1ccn([C@@H]2C[C@H](CO)C=C2F)c(=O)[nH]1,>100 µM

A second listing of 3 rows from above:

| smiles | value |
|---|---|
| CCN(CC)C(=O)OC[C@H]1CN(C(=O)c2ccccc2)CCN1C(=O)C(=O)c1c[nH]c2nccc(OC)c12 | >125 µM |
| O=c1ccn([C@@H]2C[C@H](CO)C=C2F)c(=O)[nH]1 | >100 µM |
| Cc1c(Cl)ccc2cc(/C=C/c3cccc4c3OCCO4)c(Cl)nc12 | 87.09 µM |